Anti-infective test results gathered from many reports (values: NIAID ChemDB through PubChem).

All rows: growth or infection tests

Blank or dashed fields: not listed here. A number after MIC or MFC names an inhibition level or a share of isolates. Lines come from different laboratories, so protocols vary. Zone: diameter of growth inhibition.

compound	organism	dose	method	setting	measure	strain or isolate	changes	result
O=C(Nc1ccc(Cl)c(Cl)c1)c1cc(Cl)ccc1OP(=O)(OCc1ccccc1)OCc1ccccc1	Mycobacterium kansasii	-	-	21 d	MIC	My 235/80	-	62.5 µM
COc1ccc(-c2nn(-c3ccccc3)cc2C2C3=C(NC(C)(c4cc(O)c(I)cc4Cl)NC3=O)Oc3c2c(C)nn3-c2ccccc2)cc1	Mycobacterium phlei	0.5 mg/mL	agar diffusion / agar	-	zone	NCIM 2240	-	6.2 mm
CC[C@@H](CO)NCCN[C@@H](CC)CO	Mycobacterium avium complex	-	-	-	MIC	921-5	-	1.9 µg/mL
Cc1nn(-c2ccccc2)c2c1C(c1cn(-c3ccccc3)nc1-c1ccc(F)cc1)C1=C(NC(C)(c3cc(O)cc(O)c3)NC1=O)O2	Mycobacterium smegmatis	0.5 mg/mL	agar diffusion / agar	-	zone	NCIM 5138	-	5.5 mm
N#Cc1ccc(Cn2cc(/C=N/NC(=S)NN)c3ccccc32)cc1	Mycobacterium bovis BCG	-	broth dilution	48 h	MIC100	1173P2	-	>500 µg/mL
O=C(Nc1ccccc1)c1ccccc1OP(=O)(Oc1ccccc1)c1ccccc1	Mycobacterium kansasii	-	-	14 d	MIC	My 6509/96	-	500 µM
CC[C@@H](C(=O)[C@@H](C)[C@@H](O)[C@H](C)[C@@H]1O[C@@H]([C@@H](CC)C(=O)O)CC[C@@H]1C)[C@H]1O[C@@]2(C=C[C@@H](O)[C@@]3(CC[C@@](C)([C@H]4CC[C@](O)(CC)[C@H](C)O4)O3)O2)[C@H](C)C[C@@H]1C	Mycobacterium aurum	-	resazurin	-	MIC	-	-	0.04 µg/mL
COc1ccc(-c2nn(-c3ccccc3)cc2C2C3=C(NC(C)(c4cc(O)ccc4Cl)NC3=O)Oc3c2c(C)nn3-c2ccccc2)cc1	Mycobacterium phlei	1 mg/mL	agar diffusion / agar	-	zone	NCIM 2240	-	2 mm
NNC(=S)N/N=C/c1cn(S(=O)(=O)c2ccccc2)c2ccccc12	Mycobacterium bovis BCG	-	broth dilution	48 h	MIC100	1173P2	-	>500 µg/mL
Cc1nn(-c2ccccc2)c2c1C(c1cn(-c3ccccc3)nc1-c1ccc(Cl)cc1)C1=C(NC(C)(c3cc(O)cc(O)c3)NC1=O)O2	Mycobacterium phlei	0.5 mg/mL	agar diffusion / agar	-	zone	NCIM 2240	-	3.8 mm
Nc1ccc(S(=O)(=O)c2ccc(N)cc2)cc1	Mycobacterium ulcerans	-	-	-	MBC	Isolate 8756	-	2 µg/mL
CN(C)c1cc(NC(=O)CNC(C)(C)C)c(O)c2c1C[C@H]1C[C@H]3[C@H](N(C)C)C(=O)C(C(N)=O)=C(O)[C@@]3(O)C(=O)C1=C2O	Mycobacterium massiliense	-	broth dilution	-	MIC	X71	-	4 µg/mL
CCCn1cc(/C=N/NC(=S)NN)c2ccccc21	Mycobacterium bovis BCG	-	broth dilution	48 h	MIC100	1173P2	-	>500 µg/mL
O=C(Nc1ccc(Cl)cc1)c1cc(Cl)ccc1OP(=O)(Oc1ccccc1)Oc1ccccc1	Mycobacterium kansasii	-	-	7 d	MIC	My 6509/96	-	8 µM
COc1cc(Cc2cnc(N)nc2N)cc(OC)c1OCCCNc1ccc(S(=O)(=O)c2ccc(N)cc2)cc1	Mycobacterium ulcerans	-	-	-	MBC	ATCC 19423	-	4 µg/mL
Cc1nn(-c2ccccc2)c2c1C(c1cn(-c3ccccc3)nc1-c1ccc(F)cc1)C1=C(NC(C)(c3cc(O)ccc3Cl)NC1=O)O2	Mycobacterium smegmatis	0.1 mg/mL	agar diffusion / agar	-	zone	NCIM 5138	-	1.9 mm
O=C(Nc1ccc(Br)cc1)c1cc(Cl)ccc1OP(=O)(OCc1ccccc1)OCc1ccccc1	Mycobacterium kansasii	-	-	21 d	MIC	My 6509/96	-	32 µM
CC[C@H]1OC(=O)[C@H](C)[C@@H](O[C@H]2C[C@@](C)(OC)[C@@H](O)[C@H](C)O2)[C@H](C)[C@@H](O[C@@H]2O[C@H](C)C[C@H](N(C)C)[C@H]2O)[C@](C)(OC)C[C@@H](C)C(=O)[C@H](C)[C@@H](O)[C@]1(C)O	Mycobacterium abscessus	-	broth dilution	-	MIC	X1	-	0.25 µg/mL
Cc1cccc(Cn2cc(/C=N/NC(=S)NN)c3ccccc32)c1	Mycobacterium bovis BCG	-	broth dilution	48 h	MIC100	1173P2	-	>500 µg/mL
O=C(Nc1ccccc1)c1ccccc1OP(=O)(OCc1ccccc1)OCc1ccccc1	Mycobacterium kansasii	-	-	21 d	MIC	My 6509/96	-	250 µM
CO[C@@H]1C[C@@H](C[C@H]2CC[C@H](C)[C@H]([C@@H](C)C(=O)O)O2)O[C@]2(O[C@](C)([C@H]3CC[C@@](C)([C@@H]4O[C@@H]([C@H]5O[C@@](O)(CO)[C@H](C)C[C@@H]5C)C[C@@H]4C)O3)C[C@H]2C)[C@@H]1C	Mycobacterium aurum	-	resazurin	-	MIC	-	T125 insertion	0.32 µg/mL

The last 3 rows once more:

compound | organism | dose | method | setting | measure | strain or isolate | changes | result
Cc1cccc(Cn2cc(/C=N/NC(=S)NN)c3ccccc32)c1 | Mycobacterium bovis BCG | - | broth dilution | 48 h | MIC100 | 1173P2 | - | >500 µg/mL
O=C(Nc1ccccc1)c1ccccc1OP(=O)(OCc1ccccc1)OCc1ccccc1 | Mycobacterium kansasii | - | - | 21 d | MIC | My 6509/96 | - | 250 µM
CO[C@@H]1C[C@@H](C[C@H]2CC[C@H](C)[C@H]([C@@H](C)C(=O)O)O2)O[C@]2(O[C@](C)([C@H]3CC[C@@](C)([C@@H]4O[C@@H]([C@H]5O[C@@](O)(CO)[C@H](C)C[C@@H]5C)C[C@@H]4C)O3)C[C@H]2C)[C@@H]1C | Mycobacterium aurum | - | resazurin | - | MIC | - | T125 insertion | 0.32 µg/mL